Source: US20230293407A1, “Compositions Comprising (Bio)-Alkanediols with Antimicrobials for Product Protection” (Symrise AG, priority 2020, published 2023)

How the values were obtained:
Assay in all cases: preservation efficacy test (PET), European Pharmacopoeia 5.1.3
Format in all cases: cell-based
Pseudomonas aeruginosa = Pseudomonas aeruginosa (PA)
Candida albicans = Candida albicans (CA)
Staphylococcus aureus = Staphylococcus aureus (SA)
Escherichia coli = Escherichia coli (EC)

propanediol caprylate
number of microorganisms, 2 days (Pseudomonas aeruginosa; 2 days after inoculation): 1
number of microorganisms, 7 days (Pseudomonas aeruginosa; 7 days after inoculation): 1
number of microorganisms, 14 days (Pseudomonas aeruginosa; 14 days after inoculation): 1
number of microorganisms, 28 days (Pseudomonas aeruginosa; 28 days after inoculation): 1
number of microorganisms, 2 days (Candida albicans; 2 days after inoculation): 150.000
number of microorganisms, 7 days (Candida albicans; 7 days after inoculation): 750
number of microorganisms, 14 days (Candida albicans; 14 days after inoculation): 1
number of microorganisms, 28 days (Candida albicans; 28 days after inoculation): 1
number of microorganisms, 2 days (Staphylococcus aureus; 2 days after inoculation): 11.000
number of microorganisms, 7 days (Staphylococcus aureus; 7 days after inoculation): 330
number of microorganisms, 14 days (Staphylococcus aureus; 14 days after inoculation): 1
number of microorganisms, 28 days (Staphylococcus aureus; 28 days after inoculation): 1
number of microorganisms, 2 days (Escherichia coli; 2 days after inoculation): 96.000
number of microorganisms, 7 days (Escherichia coli; 7 days after inoculation): 38.000
number of microorganisms, 14 days (Escherichia coli; 14 days after inoculation): 290
number of microorganisms, 28 days (Escherichia coli; 28 days after inoculation): 1
